Source: patent US20260250362A1 (published 2026)

T1: unnamed (UniProt Q9E006 19-651; Q9E006 652-1138)
T1 Gn: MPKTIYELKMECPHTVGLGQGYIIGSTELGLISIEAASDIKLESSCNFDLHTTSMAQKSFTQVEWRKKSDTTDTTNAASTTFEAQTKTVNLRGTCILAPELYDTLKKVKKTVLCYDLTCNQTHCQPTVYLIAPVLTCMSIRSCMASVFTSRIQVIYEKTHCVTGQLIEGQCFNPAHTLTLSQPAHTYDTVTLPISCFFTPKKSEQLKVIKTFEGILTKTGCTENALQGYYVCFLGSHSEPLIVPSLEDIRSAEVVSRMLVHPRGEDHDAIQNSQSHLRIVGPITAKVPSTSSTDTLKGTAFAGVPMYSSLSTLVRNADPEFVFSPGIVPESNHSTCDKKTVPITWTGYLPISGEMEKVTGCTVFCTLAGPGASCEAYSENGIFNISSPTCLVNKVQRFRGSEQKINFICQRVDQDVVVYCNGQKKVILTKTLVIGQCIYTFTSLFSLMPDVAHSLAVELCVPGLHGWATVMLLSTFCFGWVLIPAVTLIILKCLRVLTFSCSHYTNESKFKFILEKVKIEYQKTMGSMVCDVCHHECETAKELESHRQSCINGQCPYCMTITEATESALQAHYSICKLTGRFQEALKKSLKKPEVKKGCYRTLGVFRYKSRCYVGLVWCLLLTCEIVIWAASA
T1 Gc: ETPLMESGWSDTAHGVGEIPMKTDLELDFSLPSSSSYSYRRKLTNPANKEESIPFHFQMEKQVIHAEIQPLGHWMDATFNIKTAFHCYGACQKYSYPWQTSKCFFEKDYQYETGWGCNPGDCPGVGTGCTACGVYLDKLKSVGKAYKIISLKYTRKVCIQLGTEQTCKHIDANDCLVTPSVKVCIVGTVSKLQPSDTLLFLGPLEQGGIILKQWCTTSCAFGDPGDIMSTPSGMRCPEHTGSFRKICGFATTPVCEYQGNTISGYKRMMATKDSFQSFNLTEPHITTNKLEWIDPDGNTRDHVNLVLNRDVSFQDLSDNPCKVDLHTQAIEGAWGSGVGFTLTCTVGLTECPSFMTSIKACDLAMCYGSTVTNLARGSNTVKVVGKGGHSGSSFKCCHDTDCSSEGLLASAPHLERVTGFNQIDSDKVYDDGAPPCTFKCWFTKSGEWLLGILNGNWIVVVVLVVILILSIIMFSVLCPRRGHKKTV

T2: unnamed
T2 chain 1: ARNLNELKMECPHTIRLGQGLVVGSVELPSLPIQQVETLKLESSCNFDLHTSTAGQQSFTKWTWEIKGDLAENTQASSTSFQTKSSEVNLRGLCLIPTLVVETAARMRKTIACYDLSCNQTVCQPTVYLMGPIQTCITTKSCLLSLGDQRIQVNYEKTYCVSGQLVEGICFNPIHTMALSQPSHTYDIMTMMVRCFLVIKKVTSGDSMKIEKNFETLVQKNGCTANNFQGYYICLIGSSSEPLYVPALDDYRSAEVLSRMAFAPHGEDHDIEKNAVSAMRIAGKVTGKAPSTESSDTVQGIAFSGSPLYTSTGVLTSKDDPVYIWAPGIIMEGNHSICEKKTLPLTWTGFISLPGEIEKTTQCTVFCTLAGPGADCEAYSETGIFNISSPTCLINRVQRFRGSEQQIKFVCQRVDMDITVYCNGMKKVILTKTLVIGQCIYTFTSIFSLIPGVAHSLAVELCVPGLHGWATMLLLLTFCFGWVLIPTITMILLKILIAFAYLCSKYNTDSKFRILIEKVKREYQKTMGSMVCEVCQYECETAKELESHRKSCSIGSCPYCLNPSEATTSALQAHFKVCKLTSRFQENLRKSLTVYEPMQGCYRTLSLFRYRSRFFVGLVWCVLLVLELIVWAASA
T2 chain 2: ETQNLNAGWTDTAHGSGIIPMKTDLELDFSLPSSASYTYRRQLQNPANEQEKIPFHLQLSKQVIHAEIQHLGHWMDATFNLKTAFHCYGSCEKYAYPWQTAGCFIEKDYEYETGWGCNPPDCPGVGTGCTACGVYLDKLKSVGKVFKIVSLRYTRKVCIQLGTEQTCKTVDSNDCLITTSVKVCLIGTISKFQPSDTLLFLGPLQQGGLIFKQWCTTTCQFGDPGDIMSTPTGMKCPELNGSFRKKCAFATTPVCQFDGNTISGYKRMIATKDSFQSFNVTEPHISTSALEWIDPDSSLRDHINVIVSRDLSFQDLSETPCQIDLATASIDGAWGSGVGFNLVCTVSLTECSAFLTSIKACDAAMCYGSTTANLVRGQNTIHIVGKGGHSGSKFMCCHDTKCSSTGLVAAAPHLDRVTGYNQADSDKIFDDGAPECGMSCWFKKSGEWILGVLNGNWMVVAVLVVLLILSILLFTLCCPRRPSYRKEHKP

B1: ADI-42898 chimera HC^WT:LC^IGL with SHM Y49S (antibody, V domains shown)
VH: QVQLVESGGGVVQPGRSLRLSCAASGFTFSSYAMHWVRQAPGKGLEWVAVTWFDVSKKDYADSVKGRFTISRDNSKNTLYLQMNSLRAEDTAVYYCARNLIRYSGSYFPVHGMDVWGQGTTVTVSS
VL: not shown
B2: ADI-42898 chimera HC^WT:LC^IGL (antibody, V domains shown)
VH: B1 VH
VL: not shown

Experiments:
unnamed [1] = molecular target: T1, unnamed; experiment: ELISA; heatmap bin
unnamed [2] = molecular target: T2, unnamed; experiment: ELISA; heatmap bin

Binder	EC50 (unnamed [1]) [µM]	EC50 (unnamed [2]) [µM]
B1	> 0.01	–
B2	–	> 0.01
